Measurements: patent US20090047246A1, “NOVEL INHIBITORS OF HEPATITIS C VIRUS REPLICATION” (InterMune, Inc., priority 2007, published 2009)

Amino acid sequences for entries named in this document (tags omitted). Residues count along the entry.
UniProt P26663, 1027-1657 limits assumed: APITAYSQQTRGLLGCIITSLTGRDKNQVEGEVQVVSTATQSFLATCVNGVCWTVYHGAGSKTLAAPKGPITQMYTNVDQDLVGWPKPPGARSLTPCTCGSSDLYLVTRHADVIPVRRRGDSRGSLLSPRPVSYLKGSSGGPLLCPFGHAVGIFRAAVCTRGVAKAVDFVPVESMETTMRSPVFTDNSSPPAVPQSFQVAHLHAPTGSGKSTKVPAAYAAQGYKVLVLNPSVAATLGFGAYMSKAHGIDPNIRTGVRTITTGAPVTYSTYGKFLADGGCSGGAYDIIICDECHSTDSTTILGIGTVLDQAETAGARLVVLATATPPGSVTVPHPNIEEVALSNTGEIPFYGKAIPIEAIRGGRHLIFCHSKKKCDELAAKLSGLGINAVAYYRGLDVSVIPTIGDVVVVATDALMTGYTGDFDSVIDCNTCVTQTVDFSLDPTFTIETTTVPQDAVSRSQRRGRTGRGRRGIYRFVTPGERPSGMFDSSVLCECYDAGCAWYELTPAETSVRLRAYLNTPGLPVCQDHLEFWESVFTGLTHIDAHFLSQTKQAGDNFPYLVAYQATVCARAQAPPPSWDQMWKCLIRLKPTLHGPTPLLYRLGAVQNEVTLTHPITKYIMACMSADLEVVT

These compounds were tested against HCV NS3 helicase (Hepatitis C virus genotype 1b, UniProt P26663) (assay: HCV Helicase Prompt FRET Assay (Example A)). Settings: read-out: IC50 Activity, tables do not say whether Example A or Example B assay.
Format: biochemical
Procedure: Test compounds were diluted to 2.5 mM by adding 6 uL of a 10 mM solution of the compound to 18 uL of DMSO in a 384-well Costar polypropylene plate. Serial dilutions (2.5×) were performed in the plate using DMSO as the diluent. 1 ul of solution was transferred from each well to a new 384-well Costar polypropylene plate.
A 2× mixture was prepared containing 100 nM helicase substrate, 500 nM helicase capture strand (CS), and 600 μM ATP by diluting stock solutions with assay buffer consisting of 25 mM MOPS, pH 7.0, and 1.5 mM MgCl2, 0.005% (v/v) Triton X-100. Stock helicase substrate was prepared by annealing a FAM-labeled oligonucleotide to a BHQ-1 labeled oligonucleotide, which were both custom synthesized and HPLC-purified at Biosearch Technologies. The FAM-labeled and BHQ-labeled oligonucleotide had the following sequences:
The helicase capture strand was custom synthesized and purified at Integrated DNA Technologies. The helicase capture strand had the following sequence:
The ATP solution was prepared in MilliQ water, pH adjusted to approximately 7 with NaOH. ATP powder was obtained from Sigma (A-7699). The concentration was determined via A260 (ext. coeff=15,400 M^−1cm^−1).
11.5 μL of assay buffer was added to all wells of the plate containing luL of test compound. 5 μL of the Compound/assay buffer mixture was added to a black polystyrene 384-well Proxiplate. A 4× Enzyme solution was prepared by diluting enzyme stock containing full-length NS3 (1-631), purified at Array BioPharma, with assay buffer. 5 μL of the 4× Enzyme solution was added to the Proxiplate and incubated for 5 minutes (for control wells lacking enzyme, assay buffer was used instead). 10 μL of 2× substrate/CS/ATP mixture was then added to all wells of Proxiplate. The final assay conditions included 50 nM Substrate, 250 nM Capture Strand, 300 μM ATP, 5 or 6 nM Enzyme, and 2% (v/v) DMSO. The reaction proceeded for 70 cycles (˜30 min.) on an Envision at room temperature. The plate was read using the Envision (top mirror=FITC; Excitation filter=FITC 485; Emission filter=FITC 535). The fluorescence intensity was recorded for a total of 30 minutes. The initial rates of the reactions was calculated and used to calculate IC50 values. The IC50 curve fitting was performed using either a 4-parameter or 5-parameter logistic equation.

SMILES | IC50
O=C(O)C1CCCc2[nH]c3ccccc3c21 (stereo not shown) | > 50 µM
O=C(O)C1CC=Cc2[nH]c3ccccc3c21 (stereo not shown) | > 50 µM
O=C(O)C1CCCc2c1c1ccccc1n2Cc1ccccc1 (stereo not shown) | > 50 µM
Cc1cc([N+](=O)[O-])ccc1-n1c2c(c3ccccc31)C(C(=O)O)CCC2 (stereo not shown) | > 50 µM
